# Results of single-concentration screens

Data taken from ChEMBL document CHEMBL3988442, “University of Dundee, Small-Polar-MMV Screening Library” (2021).

Mtb glucose medium: 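Whole-cell growth test on Mycobacterium tuberculosis, read after 3 days in glucose-containing 7H9 medium; the read-out is not stated. Concentration: 500 µM. Direction is inferred from retests: higher values go with more growth inhibition. Size under these conditions: about 18,000 compounds, about 1,400 of them at 50% or above in at least one test.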
Mtb cholesterol medium: 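Whole-cell growth test on Mycobacterium tuberculosis, read after 4 days in a medium based on cholesterol and the lipid DPPC; the read-out is not stated. Tested at 500 µM. The record gives no direction; compounds that gave an IC50 in retests scored well above the rest, so higher reads as more growth inhibition. Size under these conditions: about 18,000 compounds, about 900 of them at 50% or above in at least one test.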

The filed quantity is “Percent Effect” (%).
The controls that fix the scale are not given in the record; negative values are as filed.
Many other results are left out here, so strong results are more common than in the screen.

{"compound": "NC(=O)COc1ccc(Br)cc1CNCC1CCCO1", "stereo": "stereo not drawn", "Mtb cholesterol medium": 12.06}
{"compound": "Cc1cnn(CCNCc2cccc3c2OCO3)c1", "Mtb glucose medium": 51.87}
{"compound": "C[C@@H](C(=O)NCCCc1cccnc1)n1cnnn1", "Mtb glucose medium": 10.86, "Mtb cholesterol medium": 8.008}
{"compound": "CS(=O)(=O)c1cccc(NC(=O)c2cnccn2)c1", "Mtb cholesterol medium": -11.58}
{"compound": "CCn1cnnc1CC1CCNC1", "stereo": "stereo not drawn", "Mtb glucose medium": -7.128}
{"compound": "C[C@H]1C[C@@H](CO)CCN1", "Mtb glucose medium": 0.1476}
{"compound": "COc1cccc(OC)c1CNC(C)=O", "Mtb cholesterol medium": 11.85}
{"compound": "c1ccc(-c2n[nH]c(C3CCCNC3)n2)cc1", "stereo": "stereo not drawn", "Mtb cholesterol medium": 4.486}
{"compound": "CC(=O)c1cccc(-n2nnnc2SCC#N)c1", "Mtb cholesterol medium": -5.624}
{"compound": "N[C@H]1CCN(S(=O)(=O)c2ccccc2)C1", "Mtb glucose medium": 5.194, "Mtb cholesterol medium": 0.3448}
{"compound": "COCCNC(=O)C(C)N(C)CC(C)C", "stereo": "stereo not drawn", "Mtb glucose medium": -4.906}
{"compound": "Cc1ccc(Br)c(C(=O)NC2CCS(=O)(=O)CC2)c1", "Mtb glucose medium": -0.3053}
{"compound": "CSCC(C)(O)CNC(=O)Nc1cc(C)on1", "stereo": "stereo not drawn", "Mtb glucose medium": 0.7284}
{"compound": "NC(=O)CC1CCCNC1", "stereo": "stereo not drawn", "Mtb cholesterol medium": 3.614}
{"compound": "Cn1ncnc1CNC(=O)NCc1cc(F)cc(F)c1", "Mtb glucose medium": -5.708}
{"compound": "CCOc1ccc(S(=O)(=O)N[C@@H](C)c2cncs2)cn1", "Mtb glucose medium": 32.13}
{"compound": "COc1ccc(C)cc1NC(=O)Cn1cccn1", "Mtb glucose medium": 39.73}
{"compound": "NC(=O)c1cc(S(=O)(=O)NCCCc2ccco2)cs1", "Mtb glucose medium": 12.36}
{"compound": "CC1CN(C(=O)NCc2ccsc2)CCO1", "stereo": "stereo not drawn", "Mtb glucose medium": 5.734}
{"compound": "CCC(CC)C(=O)NC1CCN(CC)CC1", "Mtb glucose medium": -9.134}
{"compound": "O=C(Cc1cccc(O)c1)N(CCO)CC1CC1", "Mtb cholesterol medium": -9.485}
{"compound": "Cc1cccc(C(=O)NCC(O)c2cccnc2)n1", "stereo": "stereo not drawn", "Mtb glucose medium": 4.267, "Mtb cholesterol medium": -6.701}
{"compound": "CCS(=O)(=O)CC(C)NCc1ccco1", "stereo": "stereo not drawn", "Mtb glucose medium": 0.7801}
{"compound": "CCN1CCN(C(=O)N(CC)CC)CC1", "Mtb cholesterol medium": 1.316}
{"compound": "CCN(Cc1nc(C)cs1)[C@H]1COC[C@@H]1O", "Mtb glucose medium": 5.961}
{"compound": "COCCC1(CO)CCCN(Cc2csc(C)n2)C1", "stereo": "stereo not drawn", "Mtb glucose medium": 9.847}
{"compound": "c1ccc2oc(CN3CCNCC3)cc2c1", "Mtb cholesterol medium": 25.44}
{"compound": "CC(C)NC1CCCc2cccnc21", "stereo": "stereo not drawn", "Mtb glucose medium": 6.96}
{"compound": "COc1ccc(S(=O)(=O)N2CC=C(C)CC2)cc1", "Mtb glucose medium": -15.36}
{"compound": "OCC1CCCN(c2ncccn2)C1", "stereo": "stereo not drawn", "Mtb glucose medium": 12.63}
{"compound": "NC(=O)CC1CCCC1", "Mtb glucose medium": -3.85, "Mtb cholesterol medium": 96.4}
{"compound": "CC(C)CC(=O)Nc1ccc(N2CCN(C)CC2)cc1", "Mtb glucose medium": 6.678}
{"compound": "N[C@@H]1CCN(C(=O)CCc2ccc(F)cc2)C1", "Mtb glucose medium": 35.26, "Mtb cholesterol medium": 15.64}
{"compound": "COc1cc(CNCC(C)O)cc(Cl)c1OCC(N)=O", "stereo": "stereo not drawn", "Mtb cholesterol medium": -0.816}
{"compound": "CN(CCc1ccccn1)C(=O)C1CCCNCC1", "stereo": "stereo not drawn", "Mtb cholesterol medium": -5.363}
{"compound": "Cc1cccc(S(=O)(=O)NCCN)c1Br", "Mtb glucose medium": 24.98}

3 of the entries, repeated:

NC(=O)CC1CCCC1 read Mtb glucose medium: -3.85%; Mtb cholesterol medium: 96.4%.
CCOc1ccc(S(=O)(=O)N[C@@H](C)c2cncs2)cn1 read Mtb glucose medium: 32.13%.
Cc1cnn(CCNCc2cccc3c2OCO3)c1 read Mtb glucose medium: 51.87%.